What was measured:
[1] = tested on: Speckled leaf blotch fungus (Septoria tritici); assay: Speckled leaf blotch anti-germ test (Test Example F); conditions: for Speckled leaf blotch anti-germ test (rate of inhibition): 50 ppm/well, Czapek-dox broth, 25°C for 3 days, absorbance 600 nm; for rate of inhibition: Test Example F, speckled leaf blotch anti-germ test
Magnaporthe grisea = assay: Rice blast disease pot test (Test Example A); conditions: for Rice blast disease pot test (control value): 250 ppm sprayed, 2.5 ml/pot, rice variety Sachikaze, degree of disease development 6 to 8 days after inoculation; for control value: Test Example A, rice blast disease pot test
[2] = tested on: Fusarium blight fungus (Fusarium graminearum); assay: Fusarium blight anti-germ test (Test Example D); conditions: for Fusarium blight anti-germ test (rate of inhibition): 50 ppm/well, Czapek-dox broth, 25°C for 3 days, absorbance 600 nm; for rate of inhibition: Test Example D, Fusarium blight anti-germ test
[3] = tested on: Gray mold fungus (Botrytis cinerea); assay: Gray mold anti-germ test (Test Example C); conditions: for Gray mold anti-germ test (rate of inhibition): 50 ppm/well, Czapek-dox broth, 25°C for 3 days, absorbance 600 nm; for rate of inhibition: Test Example C, gray mold anti-germ test
Botrytis cinerea = assay: Tomato gray mold pot test (Test Example B); conditions: for Tomato gray mold pot test (control value): 250 ppm sprayed, 2.5 ml/pot, tomato variety Oogata Fukuju, degree of disease development 2 to 3 days after inoculation; for control value: Test Example B, tomato gray mold pot test
[4] = tested on: Anthracnose fungus (Glomerella cingulata); assay: Anthracnose anti-germ test (Test Example E); conditions: for Anthracnose anti-germ test (rate of inhibition): 50 ppm/well, Czapek-dox broth, 25°C for 3 days, absorbance 600 nm; for rate of inhibition: Test Example E, anthracnose anti-germ test

## CC(=O)C1(C)N=C(n2cnc3c(C)cccc32)c2cccc(C)c2O1 (stereo not drawn)
[1]
  Speckled leaf blotch anti-germ test (rate of inhibition): L (L represents a control value or rate of inhibition of 50% or less)
Magnaporthe grisea
  Rice blast disease pot test (control value): L (L represents a control value or rate of inhibition of 50% or less)
[2]
  Fusarium blight anti-germ test (rate of inhibition): L (L represents a control value or rate of inhibition of 50% or less)
[3]
  Gray mold anti-germ test (rate of inhibition): H (H represents a control value or rate of inhibition of larger than 50%)
Botrytis cinerea
  Tomato gray mold pot test (control value): H (H represents a control value or rate of inhibition of larger than 50%)
[4]
  Anthracnose anti-germ test (rate of inhibition): H (H represents a control value or rate of inhibition of larger than 50%)

## Cc1c(Cl)ccc2c1ncn2C1=NC(C)(C)Oc2cc(Br)ccc21
[1]
  Speckled leaf blotch anti-germ test (rate of inhibition): L (L represents a control value or rate of inhibition of 50% or less)
Magnaporthe grisea
  Rice blast disease pot test (control value): L (L represents a control value or rate of inhibition of 50% or less)
[2]
  Fusarium blight anti-germ test (rate of inhibition): L (L represents a control value or rate of inhibition of 50% or less)
[3]
  Gray mold anti-germ test (rate of inhibition): L (L represents a control value or rate of inhibition of 50% or less)
Botrytis cinerea
  Tomato gray mold pot test (control value): L (L represents a control value or rate of inhibition of 50% or less)
[4]
  Anthracnose anti-germ test (rate of inhibition): L (L represents a control value or rate of inhibition of 50% or less)

## CC1(C)N=C(c2cnn3ccccc23)c2ccccc2O1
[1]
  Speckled leaf blotch anti-germ test (rate of inhibition): H (H represents a control value or rate of inhibition of larger than 50%)
Magnaporthe grisea
  Rice blast disease pot test (control value): H (H represents a control value or rate of inhibition of larger than 50%)
[2]
  Fusarium blight anti-germ test (rate of inhibition): H (H represents a control value or rate of inhibition of larger than 50%)
[3]
  Gray mold anti-germ test (rate of inhibition): H (H represents a control value or rate of inhibition of larger than 50%)
Botrytis cinerea
  Tomato gray mold pot test (control value): H (H represents a control value or rate of inhibition of larger than 50%)
[4]
  Anthracnose anti-germ test (rate of inhibition): H (H represents a control value or rate of inhibition of larger than 50%)

## C=Cc1cccc2c1ncn2C1=NC(C)(C)Oc2c(C)cccc21
[1]
  Speckled leaf blotch anti-germ test (rate of inhibition): H (H represents a control value or rate of inhibition of larger than 50%)
Magnaporthe grisea
  Rice blast disease pot test (control value): H (H represents a control value or rate of inhibition of larger than 50%)
[2]
  Fusarium blight anti-germ test (rate of inhibition): L (L represents a control value or rate of inhibition of 50% or less)
[3]
  Gray mold anti-germ test (rate of inhibition): H (H represents a control value or rate of inhibition of larger than 50%)
Botrytis cinerea
  Tomato gray mold pot test (control value): L (L represents a control value or rate of inhibition of 50% or less)
[4]
  Anthracnose anti-germ test (rate of inhibition): H (H represents a control value or rate of inhibition of larger than 50%)

## CC1(C)N=C(n2cnc3c(Cl)cccc32)c2ccc(F)c(F)c2O1
[1]
  Speckled leaf blotch anti-germ test (rate of inhibition): L (L represents a control value or rate of inhibition of 50% or less)
Magnaporthe grisea
  Rice blast disease pot test (control value): H (H represents a control value or rate of inhibition of larger than 50%)
[2]
  Fusarium blight anti-germ test (rate of inhibition): L (L represents a control value or rate of inhibition of 50% or less)
[3]
  Gray mold anti-germ test (rate of inhibition): H (H represents a control value or rate of inhibition of larger than 50%)
Botrytis cinerea
  Tomato gray mold pot test (control value): H (H represents a control value or rate of inhibition of larger than 50%)
[4]
  Anthracnose anti-germ test (rate of inhibition): L (L represents a control value or rate of inhibition of 50% or less)

## CCCCC1(CC)N=C(c2cnn3cccc(C)c23)c2ccccc2O1 (stereo not drawn)
[1]
  rate of inhibition: L (L represents a control value or rate of inhibition of 50% or less)
Magnaporthe grisea
  control value: H (H represents a control value or rate of inhibition of larger than 50%)
[2]
  rate of inhibition: L (L represents a control value or rate of inhibition of 50% or less)
[3]
  rate of inhibition: H (H represents a control value or rate of inhibition of larger than 50%)
Botrytis cinerea
  control value: H (H represents a control value or rate of inhibition of larger than 50%)
[4]
  rate of inhibition: H (H represents a control value or rate of inhibition of larger than 50%)

## CCCCC1(C)N=C(c2cnn3c(C(F)(F)F)c(C)cnc23)c2cccc(F)c2O1 (stereo not drawn)
[1]
  rate of inhibition: H (H represents a control value or rate of inhibition of larger than 50%)
Magnaporthe grisea
  control value: H (H represents a control value or rate of inhibition of larger than 50%)
[2]
  rate of inhibition: H (H represents a control value or rate of inhibition of larger than 50%)
[3]
  rate of inhibition: H (H represents a control value or rate of inhibition of larger than 50%)
Botrytis cinerea
  control value: H (H represents a control value or rate of inhibition of larger than 50%)
[4]
  rate of inhibition: H (H represents a control value or rate of inhibition of larger than 50%)

## CCOCC1(C)N=C(c2cnn3ccnc(C)c23)c2ccccc2O1 (stereo not drawn)
[1]
  rate of inhibition: H (H represents a control value or rate of inhibition of larger than 50%)
Magnaporthe grisea
  control value: L (L represents a control value or rate of inhibition of 50% or less)
[2]
  rate of inhibition: L (L represents a control value or rate of inhibition of 50% or less)
[3]
  rate of inhibition: L (L represents a control value or rate of inhibition of 50% or less)
Botrytis cinerea
  control value: L (L represents a control value or rate of inhibition of 50% or less)
[4]
  rate of inhibition: L (L represents a control value or rate of inhibition of 50% or less)

## CC1(C)N=C(n2cnc3c(F)c(F)ccc32)c2c(F)cccc2O1
[1]
  Speckled leaf blotch anti-germ test (rate of inhibition): L (L represents a control value or rate of inhibition of 50% or less)
Magnaporthe grisea
  Rice blast disease pot test (control value): L (L represents a control value or rate of inhibition of 50% or less)
[2]
  Fusarium blight anti-germ test (rate of inhibition): L (L represents a control value or rate of inhibition of 50% or less)
[3]
  Gray mold anti-germ test (rate of inhibition): L (L represents a control value or rate of inhibition of 50% or less)
Botrytis cinerea
  Tomato gray mold pot test (control value): L (L represents a control value or rate of inhibition of 50% or less)
[4]
  Anthracnose anti-germ test (rate of inhibition): L (L represents a control value or rate of inhibition of 50% or less)

## Cc1ccc2c(c1)OC(C)(C1CCC1)N=C2n1cnc2c(C)c(C)ccc21 (stereo not drawn)
[1]
  Speckled leaf blotch anti-germ test (rate of inhibition): H (H represents a control value or rate of inhibition of larger than 50%)
Magnaporthe grisea
  Rice blast disease pot test (control value): H (H represents a control value or rate of inhibition of larger than 50%)
[2]
  Fusarium blight anti-germ test (rate of inhibition): H (H represents a control value or rate of inhibition of larger than 50%)
[3]
  Gray mold anti-germ test (rate of inhibition): H (H represents a control value or rate of inhibition of larger than 50%)
Botrytis cinerea
  Tomato gray mold pot test (control value): H (H represents a control value or rate of inhibition of larger than 50%)
[4]
  Anthracnose anti-germ test (rate of inhibition): H (H represents a control value or rate of inhibition of larger than 50%)

## COc1cccc2c1ncn2C1=NC(C)(C)Oc2c(C)cccc21
[1]
  Speckled leaf blotch anti-germ test (rate of inhibition): L (L represents a control value or rate of inhibition of 50% or less)
Magnaporthe grisea
  Rice blast disease pot test (control value): H (H represents a control value or rate of inhibition of larger than 50%)
[2]
  Fusarium blight anti-germ test (rate of inhibition): L (L represents a control value or rate of inhibition of 50% or less)
[3]
  Gray mold anti-germ test (rate of inhibition): H (H represents a control value or rate of inhibition of larger than 50%)
Botrytis cinerea
  Tomato gray mold pot test (control value): H (H represents a control value or rate of inhibition of larger than 50%)
[4]
  Anthracnose anti-germ test (rate of inhibition): H (H represents a control value or rate of inhibition of larger than 50%)

Source: patent EP4821928A1, “BICYCLIC HETEROCYCLIC COMPOUND AND FUNGICIDE FOR AGRICULTURAL AND HORTICULTURAL USE CONTAINING SAME AS ACTIVE INGREDIENT” (dated 2026)
